Source: patent US7473790B2 (Pfizer Inc., priority 2003, dated 2009)
pIC50: −log10 of the molar value.

The chains behind the UniProt entries cited, without tags or fusion partners. Residues count along the entry.
UniProt P26663, 2420-3010 limits assumed: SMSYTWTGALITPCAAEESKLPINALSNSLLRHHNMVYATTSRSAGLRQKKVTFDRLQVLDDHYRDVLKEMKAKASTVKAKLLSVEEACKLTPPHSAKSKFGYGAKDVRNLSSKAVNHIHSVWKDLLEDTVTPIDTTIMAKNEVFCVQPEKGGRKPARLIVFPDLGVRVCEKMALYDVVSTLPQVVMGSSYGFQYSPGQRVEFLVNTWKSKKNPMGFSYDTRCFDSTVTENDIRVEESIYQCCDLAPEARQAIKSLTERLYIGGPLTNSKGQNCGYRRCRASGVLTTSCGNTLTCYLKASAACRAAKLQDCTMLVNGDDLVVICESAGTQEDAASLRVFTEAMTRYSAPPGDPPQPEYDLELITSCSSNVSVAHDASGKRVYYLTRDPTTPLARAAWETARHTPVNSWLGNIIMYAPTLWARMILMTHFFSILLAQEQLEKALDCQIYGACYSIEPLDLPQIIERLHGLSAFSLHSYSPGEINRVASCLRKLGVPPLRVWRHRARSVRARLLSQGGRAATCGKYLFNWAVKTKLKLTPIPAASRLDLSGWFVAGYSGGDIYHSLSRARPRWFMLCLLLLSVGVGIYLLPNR

Target: HCV polymerase (Hepatitis C virus genotype 1b, UniProt P26663)
Test: HCV polymerase primer/template-directed transcription assay (32P-GTP incorporation, filter binding)
Format: biochemical
Conditions: recombinant HCV polymerase; 30 minutes at 30° C.; concentration giving 50% inhibition of polymerase-directed transcription
Description: The compounds described herein were tested for activity with HCV polymerase. Recombinant HCV polymerase was tested for its ability to perform primer/template-directed transcription in assays that contained 30 mM tris-HCl pH 7.2, 10 mM MgCl2, 20 mM NaCl, 1 mM Dithiothreitol (DTT), 0.05% Tween-20, 1% glycerol, 5 pmoles biotin-dG12 (primer), 0.5 pmoles poly(rC)300 (template), 1 μM GTP, 0.1-0.3 uCi α-^32P-GTP, and 2.5 pmoles (0.15 μg) HCV polymerase protein in a final volume of 75 μL. Reactions were initiated by addition of enzyme and incubated 30 minutes at 30° C. Reactions were stopped by addition of 33 mM EDTA, and polynucleotide products were collected by filtration through Diethylaminoethyl (DE) Filtermat papers (Wallac). Unincorporated triphosphate was removed by washing the filters with 5% dibasic sodium phosphate. The filters were counted in a Packard Tri-Lux Microbeta scintillation counter (Packard Bioscience, Meriden, Conn.). Compounds to be tested were added at various concentrations, e.g., 1 μm to 50 μm, from stocks in 10% DMSO-water (final DMSO is 1% in reaction).
IC50 values were estimated from the primary cpm data (collected in triplicate) using the formula: cpm (I)=cpm(no inhibitor)(1−([I]/([I]+IC50))). An IC50 value represents the concentration (in μM) of a compound that provides 50% inhibition of polymerase-directed transcription in the above assay. A percent inhibition value is expressed for a compound where it was impractical to calculate an IC50 value with available data. If the IC50 estimated by the above equation was less than 200 nM, it was recalculated using the following equation, which takes into account the enzyme concentration (30 nM) in the assay: cpm(I)=cpm(no inhibitor)(1−((((I+IC50+30e−9)−sqrt(((I+IC50+30e−9)^2)−4×30e−9×I)))/((2)(30e−9))). Curve fitting was performed using the program KaleidaGraph (Synergy Software, Reading, Pa.).

`COc1ccc(CCC2(C3CCCC3)CC(O)=C(Oc3ccccc3)C(=O)O2)cc1Cl` (centres unmarked) showed a pIC50 of 6.27.

Compound `CCc1ccc(OCOCCOC)c(CCC2(C3CCCC3)CC(=O)CC(=O)O2)c1` (centres unmarked) has a pIC50 of 6.49.

With `COc1ccc(CCC2(C3CCCC3)CC(O)=C(N(C)c3ccccc3)C(=O)O2)cc1Cl` (centres unmarked) the pIC50 was 6.39.

In the case of `O=C1CC(=O)OC(CCc2ccc3c(c2)CCO3)(C2CCCC2)C1` (centres unmarked), the pIC50 was 5.17.

Work on `Cc1cc(C)n2nc(CC3=C(O)CC(CCc4ccc5c(c4)CCO5)(C4CCCC4)OC3=O)nc2n1` (centres unmarked) yielded a pIC50 of 7.27.

`CCc1cc(CCC2(C3CCCC3)CC(=O)CC(=O)O2)c(C)cc1OCOCCOC` (centres unmarked) showed a pIC50 of 5.82.

Compound `CCc1cc(CCC2(C3CCCC3)CC(=O)CC(=O)O2)c(F)cc1OCOCCOC` (centres unmarked) has a pIC50 of 5.89.

In the case of `CCc1ccc(OCc2ccccc2)c(CCC2(C3CCCC3)CC(=O)CC(=O)O2)c1` (centres unmarked), the pIC50 was 5.64.
